Compound potency records, mixed from different reports. Data source: NIAID ChemDB in PubChem.

Common to all: whole-cell or culture tests; agent: Candida albicans; measure: MIC

Blank or dashed fields: not listed here. Lines come from different laboratories, so protocols vary.

structure,strain or isolate,method,setting,value
Clc1ccc(C(Cn2ccnc2)OC/C=C/c2ccccc2)cc1,5M,,,>128 µg/mL
O/N=C(\c1ccc(Cl)cc1)c1oc2ccc(Cl)cc2c1Cn1ccnc1,NRRL Y-27077,,,12.5 µg/mL
COC(=O)[C@H]1[C@@H]2C[C@@H](O[C@@H]3O[C@H](C)[C@@H](O)[C@H](N)[C@@H]3O)/C=C/C=C/C=C/C=C/C=C/C=C/C=C/[C@H](C)[C@@H](O)[C@H](C)[C@H](C)OC(=O)C[C@H](O)C[C@H](O)[C@@H](O)CC[C@H](O)C[C@H](O)C[C@](O)(C[C@@H]1O)O2,15 isolates,broth dilution,pH 6,1 µg/mL
CNc1ccc(C(=O)CC(O)CCC(C)C2OC(=O)CC(O)CC(=O)CC(O)CC(O)CC(O)CC(O)CC3(O)CC(O)C(C(=O)N4CCN(C)CC4)C(CC(O[C@@H]4O[C@H](C)[C@@H](O)[C@H](NC(=O)CCN5CCCCC5)[C@@H]4O)/C=C/C=C/C=C/C=C\C=C/C=C/C=C/C2C)O3)cc1,200,,,0.03 µg/mL
O=[n+]1c(Sc2ccccc2)c(CBr)n([O-])c2ccccc21,Clinical isolate 15,,,31.25 µg/mL
CNc1ccc(C(=O)CC(O)CCC(C)C2OC(=O)CC(O)CC(=O)CC(O)CC(O)CC(O)CC(O)CC3(O)CC(O)C(C(=O)N4CCN(CCO)CC4)C(CC(O[C@@H]4O[C@H](C)[C@@H](O)[C@H](NC(=O)CN(C)C)[C@@H]4O)/C=C/C=C/C=C/C=C\C=C/C=C/C=C/C2C)O3)cc1,200,,,0.06 µg/mL
c1ccc(-c2ccc(COC(Cn3ccnc3)c3ccccc3)cc2)cc1,CA2,,,128 µg/mL
C[C@@H](NC(=O)c1ccc(Cl)cc1N)[C@](O)(Cn1cncn1)c1ccc(F)cc1F,60 strains,,,0.07 µg/mL
CNc1ccc(C(=O)CC(O)CCC(C)C2OC(=O)CC(O)CC(=O)CC(O)CC(O)CC(O)CC(O)CC3(O)CC(O)C(C(=O)N4CCN(C)CC4)C(CC(O[C@@H]4O[C@H](C)[C@@H](O)[C@H](NC(=O)CN(C)C)[C@@H]4O)/C=C/C=C/C=C/C=C\C=C/C=C/C=C/C2C)O3)cc1,73,,,0.0075 µg/mL
Cc1c(O)cccc1C(=O)N[C@@H](CSc1ccccc1)[C@H](O)CN1C[C@H]2CCCC[C@H]2C[C@H]1C(=O)NC(C)(C)C,I1,,,64 µg/mL
CC(C)N=C(N)c1ccc2nc(-c3ccc4c(c3)Cc3cc(-c5nc6ccc(C(N)=NC(C)C)cc6[nH]5)ccc3-4)[nH]c2c1,Isolate 3028 fluconazole-resistant,,,1.56 µg/mL
C[C@@H](n1cnc2cc(OCCF)ccc2c1=O)[C@](O)(Cn1cncn1)c1ccc(F)cc1F,60 strains,,,0.07 µg/mL
Cc1c(/C(=N\O)c2ccc(Cl)cc2)oc2ccccc12,NRRL Y-27077,,,5 µg/mL
Cc1cccc2ncn([C@H](C)[C@](O)(Cn3cncn3)c3ccc(F)cc3F)c(=O)c12,406 strains,,,0.07 µg/mL
Nc1[nH]c(=O)ncc1F,10 isolates,broth dilution,pH 7,1 µg/mL
Cc1c(Cl)[n+](=O)c2cc(Cl)ccc2n1[O-],Clinical isolate 18,,,7.8 µg/mL
Cc1ccc2oc(/C(=N/O)c3ccccc3)c(C)c2c1,NRRL Y-27077,,,12.5 µg/mL
CCC(C)n1ncn(-c2ccc(N3CCN(c4ccc(OC[C@H]5CO[C@](Cn6cncn6)(c6ccc(Cl)cc6Cl)O5)cc4)CC3)cc2)c1=O,10 isolates,broth dilution,pH 6,0.06 µg/mL
C[C@@H](n1cnc2cc(S(=O)(=O)c3ccccc3)ccc2c1=O)[C@](O)(Cn1cncn1)c1ccc(F)cc1F,76 strains,,,0.15 µg/mL
O[C@](Cn1cncn1)(Cn1cnc(/C=C/c2ccc(OCC(F)(F)C(F)F)cc2)n1)c1ccc(F)cc1F,Isolate I1-39,,,2 µg/mL
CC(C)(C)c1ccc(COC(Cn2ccnc2)c2ccc(Cl)cc2Cl)cc1,3M,,,128 µg/mL
C[C@H]1[C@H](O)[C@@H](C)/C=C/C=C/C=C/C=C/C=C/C=C/C=C/[C@H](O[C@@H]2O[C@H](C)[C@@H](O)[C@H](N)[C@@H]2O)C[C@@H]2O[C@](O)(C[C@@H](O)C[C@@H](O)CC[C@H](O)[C@@H](O)C[C@@H](O)CC(=O)O[C@H]1C)C[C@H](O)[C@H]2C(=O)O,ATCC64547,,,1 µg/mL
CC(C)(C)c1ccc(COC(Cn2ccnc2)c2ccc(Cl)cc2)cc1,CDCB385,,,>128 µg/mL
CCC(C)CC(C)CCCCCCCCC(=O)N[C@H]1C[C@@H](O)[C@H](NCCN)NC(=O)[C@@H]2[C@@H](O)CCN2C(=O)[C@H]([C@H](O)CCN)NC(=O)[C@H]([C@H](O)[C@@H](O)c2ccc(O)cc2)NC(=O)[C@@H]2C[C@@H](O)CN2C(=O)[C@H]([C@@H](C)O)NC1=O,10 isolates,broth dilution,pH 6,0.03 µg/mL
c1ccc(C(Cn2ccnc2)OCc2cccc3ccccc23)cc1,CDCB385,,,128 µg/mL
C[C@@H](n1cnc2cc(N3CCOC3=O)ccc2c1=O)[C@](O)(Cn1cncn1)c1ccc(F)cc1F,406 strains,,,0.31 µg/mL
O=C(c1ccc(Cl)cc1)c1oc2ccccc2c1Cn1ccnc1,NRRL Y-27077,,,25 µg/mL
CNc1ccc(C(=O)CC(O)CCC(C)C2OC(=O)CC(O)CC(=O)CC(O)CC(O)CC(O)CC(O)CC3(O)CC(O)C(C(=O)N4CCN(CCO)CC4)C(CC(O[C@@H]4O[C@H](C)[C@@H](O)[C@H](NC(=O)CCN5CCCCC5)[C@@H]4O)/C=C/C=C/C=C/C=C\C=C/C=C/C=C/C2C)O3)cc1,200,,,0.03 µg/mL
Cc1ccc(C(Cn2ccnc2)OC/C=C/c2ccccc2)cc1,Y0109,,,128 µg/mL
C[C@@H](c1ncncc1F)[C@](O)(Cn1cncn1)c1ccc(F)cc1F,406 strains,,,≤0.03 µg/mL
CN(CCCC#CC(C)(C)C)c1cccc2c1CCC(=O)N2,Clinical isolate 16,,,62.5 µg/mL
CCC(C)n1ncn(-c2ccc(N3CCN(c4ccc(OC[C@H]5CO[C@](Cn6cncn6)(c6ccc(Cl)cc6Cl)O5)cc4)CC3)cc2)c1=O,B59630,,,>4 µg/mL
Cc1c(Sc2ccccc2)[n+](=O)c2cc(C(F)(F)F)ccc2n1[O-],Clinical isolate 7,,,31.25 µg/mL
Clc1ccc(C(Cn2ccnc2)OCc2cccc3ccccc23)cc1,Y0109,,,>128 µg/mL